Reference: publication PMC10127588 (mBio, 2023)

System: Mps1 single mutants (Q31, K52, E70, D167, V37, L156 to alanine)
Details: SPR; except for E70 and D167 mutants

`CNC(=O)[C@H](Cc1c[nH]c2ccccc12)NC(=O)c1ccc2cncc(-c3cc(OC(F)(F)F)ccc3OC)c2n1` [A378-0] was tested, and the “affinity to single mutants compared with Mps1” value was “no obvious differences in affinity were observed”.
